A mixed list of measured activities; the numbers were collected in NIAID ChemDB.

All rows: tests in culture; species: HIV-1; method: p24; measure: EC90

ECn is the concentration giving n% inhibition of infection, replication or growth. An empty or dashed field is not shown. Two numbers with a dash give a range or band. Neighbouring rows are from separate reports.

SMILES,mutations,strain,cell line,setting,value
CC(=O)N1CCC(C(=O)N(CCCN2CCC(Cc3ccc(C(N)=O)cc3)CC2)c2ccc(C)c(Cl)c2)CC1,,SW X4 clinical isolate,PBMC,,>10 µM
Cc1c(O)cccc1C(=O)N[C@@H](CSc1ccccc1)[C@H](O)CN1C[C@H]2CCCC[C@H]2C[C@H]1C(=O)NC(C)(C)C,,BAL R5,PBMC,,0.105 µM
Nc1nc(N)c2ncn([C@H]3CC[C@@H](CO)O3)c2n1,,LAV,C3,,26 µM
Nc1ccn([C@H]2CC[C@@H](CO)O2)c(=O)n1,,JR-CSF,PBMC,,0.153 µM
Nc1ccn([C@H]2CC[C@@H](CO)O2)c(=O)n1,,LAV,C3,,2 µM
Cc1c(O)cccc1C(=O)N[C@@H](CSc1ccccc1)[C@H](O)CN1C[C@H]2CCCC[C@H]2C[C@H]1C(=O)NC(C)(C)C,,NL4-3,MT-4,,0.025 µM
Cc1cn([C@H]2C[C@H](N=[N+]=[N-])[C@@H](CO)O2)c(=O)[nH]c1=O,,IIIB,H9,chronic infection,>100 µM
CC(C)(C)NC(=O)[C@@H]1C[C@H](Cl)CN1C(=O)[C@@H](O)[C@H](Cc1ccccc1)NC(=O)[C@H](CC(N)=O)NC(=O)c1noc2ccccc12,,IIIB,MOLT-4/HIV-1(IIIB) + MOLT-4,,3.2 µM
CC(C)c1nc(CN(C)C(=O)N[C@H](C(=O)N[C@@H](Cc2ccccc2)C[C@H](O)[C@H](Cc2ccccc2)NC(=O)OCc2cncs2)C(C)C)cs1,,NL4-3,MT-4,,0.2 µM
CO[C@H]1/C=C/O[C@@]2(C)Oc3c(C)c(O)c4c(c3C2=O)C(=O)C(SCCOC(=O)CCC(=O)OC[C@H]2O[C@@H](n3cc(C)c(=O)[nH]c3=O)C[C@@H]2N=[N+]=[N-])=C(NC(=O)/C(C)=C\C=C\[C@H](C)[C@H](O)[C@@H](C)[C@@H](O)[C@@H](C)[C@H](OC(C)=O)[C@@H]1C)C4=O,,IIIB,C8166,,14 µM
CC(C)c1nc(CN(C)C(=O)N[C@H](C(=O)N[C@@H](Cc2ccccc2)C[C@H](O)[C@H](Cc2ccccc2)NC(=O)OCc2cncs2)C(C)C)cs1,PR-I84V,NL4-3,MT-4,,0.8 µM
CC(C)c1c(COC(N)=O)cn(Cc2ccncc2)c1Sc1cc(Cl)cc(Cl)c1,RT-Y181C,,C8166,,20 µM
Cc1cn([C@H]2C[C@H](N=[N+]=[N-])[C@@H](CO)O2)c(=O)[nH]c1=O,,JR-FL R5,PBMC,,0.157 µM
Cc1cn([C@H]2C[C@H](N=[N+]=[N-])[C@@H](CO)O2)c(=O)[nH]c1=O,,Subtype B isolate,PBMC,,0.01 µM
Cc1ccnc2c1NC(=O)c1cccnc1N2C1CC1,,IIIB,PBMC,,0.15 µM
CCOP(=O)(OC[C@H]1O[C@@H](n2cc(C)c(=O)[nH]c2=O)C[C@@H]1N=[N+]=[N-])C(N)=O,,GKV-4046,MT-4,,0.004 µM
Cc1ccnc2c1NC(=O)c1cccnc1N2C1CC1,,IIIB,PBMC,,1.095 µM
CCCCN1C(=O)C(CC2CCCCC2)NC(=O)C12CCN(Cc1ccc3c(c1)OCCO3)CC2,,BaL,PBMC,,0.903 µM
CCOP(=O)(OC[C@@H]1C=C[C@H](n2cc(C)c(=O)[nH]c2=O)O1)C(N)=O,,GKV-4046,MT-4,,2.1 µM
CC(C)(C)NC(=O)[C@@H]1C[C@@H]2CCCC[C@@H]2N1C(=O)[C@@H](O)[C@H](Cc1ccccc1)NC(=O)[C@H](CC(N)=O)NC(=O)COc1ccc2cc(Br)ccc2c1,,RF,MT-2,,0.14 µM
COc1cccc2cc(C(=O)N[C@@H](CC(N)=O)C(=O)N[C@@H](Cc3ccccc3)[C@H](O)C(=O)N3C[C@@H](Cl)C[C@H]3C(=O)NC(C)(C)C)oc12,,IIIB,MOLT-4/HIV-1(IIIB) + MOLT-4,,0.58 µM
CC(C)[C@H](NC(=O)COc1cccc2ccccc12)C(=O)N[C@@H](Cc1ccccc1)[C@H](O)C(=O)N1[C@H](C(=O)NC(C)(C)C)C[C@@H]2CCCC[C@@H]21,,RF,MT-2,,0.033–0.12 µM
CCC(c1cc(=O)[nH]c(SC2CCCC2)n1)c1c(F)cccc1F,,IIIB,MT-4,,0.042 µM
CCc1cc(NCc2nc3c(Cl)ccc(Cl)c3o2)c(=O)[nH]c1C,RT-K70R,Clinical isolate (RT K70R),PBMC,,0.4 µM
CC(C)c1c(COC(N)=O)cn(Cc2ccncc2)c1Sc1ccccc1,RT-Y181C,,C8166,,>100 µM
Cc1c(O)cccc1C(=O)N[C@@H](CSc1ccccc1)[C@H](O)CN1C[C@H]2CCCC[C@H]2C[C@H]1C(=O)NC(C)(C)C,,IIIB,PBMC,,0.0272 µM
CC(C)(C)NC(=O)[C@@H]1CN(Cc2cccnc2)CCN1C[C@@H](O)C[C@@H](Cc1ccccc1)C(=O)N[C@H]1c2ccccc2C[C@H]1O,,IIIB,CEM + CEM-SS,,0.027 µM
O=C1N(Cc2ccc(CO)cc2)[C@H](Cc2ccccc2)[C@H](O)[C@@H](O)[C@@H](Cc2ccccc2)N1Cc1ccc(CO)cc1,,HXB2,PBMC,,0.05 µM
CC(C)(C)NC(=O)[C@@H]1C[C@@H]2CCCC[C@@H]2N1C(=O)[C@@H](O)[C@H](Cc1ccccc1)NC(=O)[C@H](CC(N)=O)NC(=O)c1ccc2ccccc2n1,,RF,MT-2,,0.023–0.11 µM
Cc1ccc(-c2ccc3c(c2)C=C(C(=O)Nc2ccc(C[N+](C)(C)C4CCOCC4)cc2)CCC3)cc1,,BAL R5,PBMC,,0.256 µM
CCCc1c([Se]c2ccccc2)n(COCc2ccccc2)c(=O)[nH]c1=O,,Cat #3 strain,MT-2,,0.143 µM
Nc1nc2c(ncn2[C@H]2C=C[C@@H](CO)C2)c(=O)[nH]1,,LAV,C3,,2.3 µM
CC(C)Nc1cccnc1N1CCN(C(=O)c2cc3cc(NS(C)(=O)=O)ccc3[nH]2)CC1,,Isolate 461,PBMC,,10 µM
CCOC(=O)P(=O)(OCCc1ccccc1)OC[C@H]1O[C@@H](n2cc(C)c(=O)[nH]c2=O)C[C@@H]1N=[N+]=[N-],,GKV-4046,MT-4,,0.075 µM
CO[C@H]1/C=C/O[C@@]2(C)Oc3c(C)c(O)c4c(c3C2=O)C(=O)C(SCCCCCCCOC(=O)CCCC(=O)OC[C@H]2O[C@@H](n3cc(C)c(=O)[nH]c3=O)C[C@@H]2N=[N+]=[N-])=C(NC(=O)/C(C)=C\C=C\[C@H](C)[C@H](O)[C@@H](C)[C@@H](O)[C@@H](C)[C@H](OC(C)=O)[C@@H]1C)C4=O,,IIIB,C8166,,13 µM
CSC[C@H](NC(=O)COc1cccc2ccccc12)C(=O)N[C@@H](Cc1ccccc1)[C@H](O)C(=O)N1CSC(C)(C)[C@H]1C(=O)NC(C)(C)C,,Clinical isolates,PBMC,,0.06 µM
CC(C)(C)OC(=O)N[C@@H](Cc1ccccc1)[C@@H](O)C[C@@H](Cc1ccc(OCc2nn[nH]n2)cc1)C(=O)N[C@H]1c2ccccc2C[C@H]1O,,IIIB,MT-4,,>10 µM
CO[C@H]1/C=C/O[C@@]2(C)Oc3c(C)c(O)c4c(c3C2=O)C(=O)C(SCCOC(=O)CCCC(=O)OC[C@@H]2O[C@H](n3cc(C)c(=O)[nH]c3=O)C[C@H]2N=[N+]=[N-])=C(NC(=O)/C(C)=C\C=C\[C@H](C)[C@H](O)[C@@H](C)[C@@H](O)[C@@H](C)[C@H](OC(C)=O)[C@@H]1C)C4=O,,IIIB,C8166,,6 µM
Cc1cn([C@H]2C[C@H](N=[N+]=[N-])[C@@H](CO)O2)c(=O)[nH]c1=O,,IIIB,MT-2,,0.0489 µg/mL
O=c1[nH]cnc2c1ncn2[C@H]1CC[C@@H](CO)O1,,NL-XM WT,MT-4,,6.9 µM
CCc1cc(NCc2nc3c(Cl)ccc(Cl)c3o2)c(=O)[nH]c1C,RT-P236L,DLV-resistant MF (RT-P236L),MT-4,,0.43 µM
Cc1cn([C@H]2C[C@H](N=[N+]=[N-])[C@@H](CO)O2)c(=O)[nH]c1=O,,472 clinical isolates AZT-resistant,PBMC,,1.4 µM
Cc1ccnc2c1NC(=O)c1cccnc1N2C1CC1,,Subtype B isolate,PBMC,,0.1 µM
CC(C)(C)NC(=O)[C@@H]1CSCN1C(=O)[C@@H](O)[C@H](Cc1ccccc1)NC(=O)[C@H](CC(N)=O)NC(=O)COc1cccc2ccccc12,,Clinical isolates,PBMC,,0.24 µM
CCOP(=O)(OC[C@H]1O[C@@H](n2cc(C)c(=O)[nH]c2=O)C[C@@H]1N=[N+]=[N-])C(=O)NCCc1ccccc1,,GKV-4046,MT-4,,0.0022 µM
Nc1ccn([C@H]2CC[C@@H](CO)O2)c(=O)n1,,HXB2,PBMC,,0.7 µM
CC(C)Nc1cccnc1N1CCN(C(=O)c2cc3cc(NS(C)(=O)=O)ccc3[nH]2)CC1,,IIIB,H9,,0.05 µM
CC#CCN1C(=O)[C@H]([C@@H](O)C2CCCCC2)NC(=O)C12CCN(Cc1c(C)nn(-c3ccccc3)c1C)CC2,,BAL R5,PBMC,,0.324 µM
CCCOP(=O)(OC[C@H]1O[C@@H](n2cc(C)c(=O)[nH]c2=O)C[C@@H]1N=[N+]=[N-])C(N)=O,,GKV-4046,MT-4,,0.0288 µM
C[C@H]1CN2CCC[C@H]3CCCCC[C@@H]4C(=O)[C@@H](C)CN5CCC[C@@H](CCCCC[C@H](C1=O)[C@@H]32)[C@H]45,,MN,MT-2,,86.8 µM
CC(C)(C)NC(=O)[C@@H]1[C@@H](Cl)CCN1C(=O)[C@@H](O)[C@H](Cc1ccccc1)NC(=O)[C@H](CC(N)=O)NC(=O)OCc1ccccc1,,IIIB,CEM,,1.5 µM
Cc1cn([C@H]2C[C@H](N=[N+]=[N-])[C@@H](COP(=O)(OC(C)C)C(N)=O)O2)c(=O)[nH]c1=O,,GKV-4046,MT-4,,0.006 µM
Cc1cn([C@H]2C[C@H](N=[N+]=[N-])[C@@H](CO)O2)c(=O)[nH]c1=O,,MN,MT-2,,0.1 µM
CC(C)CN(C[C@@H](O)[C@H](Cc1ccccc1)NC(=O)[C@@H](NC(=O)CNCc1cccc(F)c1)C(C)(C)C)S(=O)(=O)c1ccc(N)cc1,,HXB2,MT-4,,0.012 µM
CCOC(=O)P(=O)(OC[C@H]1O[C@@H](n2cc(C)c(=O)[nH]c2=O)C[C@@H]1N=[N+]=[N-])OC12CC3CC(CC(C3)C1)C2,,GKV-4046,MT-4,,3.9 µM
CC(C)(C)NC(=O)[C@@H]1CCCN1C(=O)[C@@H](O)[C@H](Cc1ccccc1)NC(=O)[C@H](CC(N)=O)NC(=O)COc1cccc2ccccc12,,RF,MT-2,,0.36 µM
Cn1cc(C(=O)O)c(=O)c2cc(F)c(N3CC=C(c4ccccc4)CC3)c(C(F)(F)F)c21,,IIIB,MOLT-4/M0(HIV-1(IIIB)) + MOLT-4,,0.3 µM

5 of the rows above, restated:

| SMILES | mutations | strain | cell line | setting | value |
|---|---|---|---|---|---|
| Cc1cn([C@H]2C[C@H](N=[N+]=[N-])[C@@H](CO)O2)c(=O)[nH]c1=O |  | IIIB | H9 | chronic infection | >100 µM |
| CC(C)(C)NC(=O)[C@@H]1CCCN1C(=O)[C@@H](O)[C@H](Cc1ccccc1)NC(=O)[C@H](CC(N)=O)NC(=O)COc1cccc2ccccc12 |  | RF | MT-2 |  | 0.36 µM |
| CC(C)(C)NC(=O)[C@@H]1CSCN1C(=O)[C@@H](O)[C@H](Cc1ccccc1)NC(=O)[C@H](CC(N)=O)NC(=O)COc1cccc2ccccc12 |  | Clinical isolates | PBMC |  | 0.24 µM |
| CC(C)(C)NC(=O)[C@@H]1C[C@@H]2CCCC[C@@H]2N1C(=O)[C@@H](O)[C@H](Cc1ccccc1)NC(=O)[C@H](CC(N)=O)NC(=O)COc1ccc2cc(Br)ccc2c1 |  | RF | MT-2 |  | 0.14 µM |
| Nc1nc2c(ncn2[C@H]2C=C[C@@H](CO)C2)c(=O)[nH]1 |  | LAV | C3 |  | 2.3 µM |